Data taken from US20100179092.

Columns and labels:
[1] = target: HC[…]-3 ([…] CVF with 1 substitution, E1633H)
[2] = target: HC[…]-9 ([…] CVF with 5 substitutions from human C3, Q1571S, T1573S, N1576V, P1577Q, and R1578V)

B1: human Factor B (protein)
chain: TPWSLARPQGSCSLEGVEIKGGSFRLLQEGQALEYVCPSGFYPYPVQTRTCRSTGSWSTLKTQDQKTVRKAECRAIHCPRPHDFENGEYWPRSPYYNVSDEISFHCYDGYTLRGSANRTCQVNGRWSGQTAICDNGAGYCSNPGIPIGTRKVGSQYRLEDSVTYHCSRGLTLRGSQRRTCQEGGSWSGTEPSCQDSFMYDTPQEVAEAFLSSLTETIEGVDAEDGHGPGEQQKRKIVLDPSGSMNIYLVLDGSDSIGASNFTGAKKCLVNLIEKVASYGVKPRYGLVTYATYPKIWVKVSEADSSNADWVTKQLNEINYEDHKLKSGTNTKKALQAVYSMMSWPDDVPPEGWNRTRHVIILMTDGLHNMGGDPITVIDEIRDLLYIGKDRKNPREDYLDVYVFGVGPLVNQVNINALASKKDNEQHVFKVKDMENLEDVFYQMIDESQSLSLCGMVWEHRKGTDYHKQPWQAKISVIRPSKGHESCMGAVVSEYFVLTAAHCFTVDDKEHSIKVSVGGEKRDLEIEVVLFHPNYNINGKKEAGIPEFYDYDVALIKLKNKLKYGQTIRPICLPCTEGTTRALRLPPTTTCQQQKEELLPAQDIKALFVSEEEKKLTRKEVYIKNGDKKGSCERDAQYAPGYDKVKDISEVVTPRFLCTGGVSPYADPNTCRGDSGGPLIVHKRSRFIQVGVISWGVVDVCKNQKRQKQVPAHARDFHINLFQVLPWLKEKLQDEDLGFL
[1]
  convertase stability (factor B cleavage assay, FIG. 4): contained one additional residue found in CVF than HC3-1496/1617, yet formed a much less stable convertase
  factor B cleavage activity: rapid factor B cleavage activity
[2]
  convertase stability (factor B cleavage assay, FIG. 4): substituting the amino acid residues found in human C3 into these positions results in a very unstable convertase
